Pooled drug test results. Numbers come from NIAID ChemDB, via PubChem.

Common to all: tests on isolated targets

Lines come from different laboratories, so protocols vary.

{"smiles": "CCCCCCC[C@H](O)C[C@@H]1CC[C@H]2C(C(=O)O[C@H](C)CCCCCCC[C@@H]3C[C@@H]4CC[C@@H]5C[C@H](C)NC(=[N+]54)N3)=C(C)NC(N)=[N+]12", "agent": "HIV-1", "endpoint": "inhibition", "tested at": "5 µM", "protein": "Nef", "strain or isolate": "NL4-3", "read by": "ELISA", "value": "85.5%"}
{"smiles": "Cc1cn([C@@H]2O[C@H](CO[Si](C)(C)C(C)(C)C)C3(OS(=O)(=O)C=C3N)[C@H]2O[Si](C)(C)C(C)(C)C)c(=O)n(C)c1=O", "mutations": "RT-P95A", "agent": "HIV", "endpoint": "IC50", "protein": "Reverse transcriptase", "read by": "nucleotide incorporation / radiometric", "value": "0.9 µM"}
{"smiles": "CCCCCCC[C@H](O)C[C@@H]1CC[C@H]2C(C(=O)O[C@@H](C)CCCCCCC[C@@H]3C[C@@H]4CC[C@@H]5C[C@H](C)NC(=[N+]54)N3)=C(C)NC(N)=[N+]12", "agent": "HIV-1", "endpoint": "IC50", "protein": "Nef", "strain or isolate": "NL4-3", "read by": "ELISA", "value": "<5 µM"}
{"smiles": "CNC(=O)[C@@H](NC(=O)[C@H](OCc1ccccc1)[C@H](O)[C@@H](O)[C@@H](OCc1ccccc1)C(=O)N[C@H]1c2ccccc2C[C@H]1O)C(C)C", "mutations": "PR-I84V", "agent": "HIV-1", "endpoint": "fold resistance", "protein": "Protease", "value": "6.3"}
{"smiles": "C=C(NC(=O)C(=C)NC(=O)c1csc(C2=N[C@@H]3c4csc(n4)[C@H]4NC(=O)c5csc(n5)[C@H]([C@](C)(O)[C@@H](C)O)NC(=O)C5CSC(=N5)/C(=C/C)NC(=O)[C@H]([C@@H](C)O)NC(=O)c5csc(n5)[C@]3(CC2)NC(=O)C(C)NC(=O)C(=C)NC(=O)C(C)NC(=O)C(C(C)CC)NC2C=Cc3c([C@H](C)O)cc(nc3[C@H]2O)C(=O)O[C@@H]4C)n1)C(N)=O", "agent": "HIV-1", "endpoint": "inhibition", "tested at": "100 µM", "protein": "Rev:RRE", "read by": "gel", "value": "0%"}
{"smiles": "CC[C@H]1C=CCC[C@@]2(C[C@@H]3CC[C@@H]4[C@H](C(=O)OC/C=C/c5ccccc5)[C@]5(CCC[C@@H](C)O5)NC(=[N+]34)N2)O1", "agent": "HIV-1", "endpoint": "inhibition", "tested at": "5 µM", "protein": "Nef", "strain or isolate": "NL4-3", "read by": "ELISA", "value": "81.2%"}
{"smiles": "NC[C@@H]1O[C@H](O[C@H]2[C@@H](O)[C@H](O[C@@H]3[C@@H](O)[C@H](N)C[C@H](N)[C@H]3O[C@H]3O[C@H](CN)[C@@H](O)[C@H](O)[C@H]3N)O[C@@H]2CO)[C@H](N)[C@@H](O)[C@@H]1O", "agent": "HIV-1", "endpoint": "IC50", "protein": "Rev:RRE", "read by": "gel", "value": "<1 µM"}
{"smiles": "CO[P@](=O)(c1cc(C)cc(/C=C/C#N)c1)c1c(C(N)=O)[nH]c2ccc(Cl)cc12", "mutations": "V106M", "agent": "HIV", "endpoint": "IC50", "protein": "Reverse transcriptase", "value": "0.2 µM"}
{"smiles": "COC(=O)c1ccc(CN2[C@H](COc3ccccc3)[C@H](O)[C@@H](O)[C@@H](COc3ccccc3)N(Cc3ccc(C(=O)OC)cc3)S2(=O)=O)cc1", "mutations": "PR-V82A", "agent": "HIV-1", "endpoint": "fold resistance", "protein": "Protease", "value": "1.1"}
{"smiles": "NC[C@H]1O[C@H](O[C@H]2[C@H](O)[C@@H](O[C@H]3O[C@H](CO)[C@@H](O)[C@H](N)[C@H]3O)[C@H](N)C[C@@H]2N)[C@H](O)[C@@H](O)[C@@H]1O", "agent": "HIV-1", "endpoint": "inhibition", "tested at": "100 µM", "protein": "Rev:RRE", "read by": "gel", "value": "0%"}
{"smiles": "CC[C@H]1C(=O)Nc2ccc(F)cc2N1C(=O)OC(C)C", "mutations": "RT-N137H", "agent": "HIV", "endpoint": "IC50", "protein": "Reverse transcriptase", "read by": "nucleotide incorporation / radiometric", "value": "0.011 µM"}
{"smiles": "NC[C@H]1O[C@H](O[C@H]2[C@H](O)[C@@H](O)[C@H](N)C[C@@H]2N)[C@H](N)[C@@H](O)[C@@H]1O", "agent": "HIV-1", "endpoint": "inhibition", "tested at": "100 µM", "protein": "Rev:RRE", "read by": "gel", "value": "100%"}
{"smiles": "Cc1cccc(C)c1OCC(=O)N[C@@H](Cc1ccccc1)[C@H](O)CN1CC[C@@H](Sc2ccncc2)C[C@H]1C(=O)NC(C)(C)C", "mutations": "PR-V32I M46I A71V I84A", "agent": "HIV", "endpoint": "fold resistance", "protein": "Protease", "read by": "fluorescence", "value": "4500"}
{"smiles": "c1ccc(C2SCc3nc4ccccc4n32)cc1", "mutations": "RT-K103N Y188L", "agent": "HIV", "endpoint": "IC50", "protein": "Reverse transcriptase", "value": ">50 µM"}
{"smiles": "Nc1nc2c(ncn2[C@H]2CC[C@@H](COP(=O)(O)OP(=O)(O)OP(=O)(O)O)O2)c(=O)[nH]1", "mutations": "RT-P95A", "agent": "HIV", "endpoint": "IC50", "protein": "Reverse transcriptase", "read by": "nucleotide incorporation / radiometric", "value": "1.4 µM"}
{"smiles": "CC[C@H]1C=CCC[C@@]2(C[C@@H]3CC[C@@H]4[C@H](C(=O)OCc5ccccc5)[C@]5(CCC[C@@H](C)O5)NC(=[N+]34)N2)O1", "agent": "HIV-1", "endpoint": "inhibition", "tested at": "5 µM", "protein": "Nef", "strain or isolate": "NL4-3", "read by": "ELISA", "value": "80.6%"}
{"smiles": "NC[C@@H]1O[C@H](O[C@H]2[C@@H](O)[C@H](O[C@@H]3[C@@H](O)[C@H](N)C[C@H](N)[C@H]3O[C@H]3O[C@H](CO)[C@@H](O)C[C@H]3N)O[C@@H]2CO)[C@H](N)[C@@H](O)[C@@H]1O[C@H]1O[C@H](CO)[C@@H](O)[C@H](O)[C@@H]1O", "agent": "HIV-1", "endpoint": "inhibition", "tested at": "10 µM", "protein": "Rev:RRE", "read by": "gel", "value": "100%"}
{"smiles": "O=S1(=O)N(Cc2ccc(CO)cc2)[C@H](COc2ccccc2)[C@H](O)[C@@H](O)[C@@H](COc2ccccc2)N1Cc1ccc(CO)cc1", "mutations": "PR-G48V V82A I84V L90M", "agent": "HIV", "endpoint": "Ki", "protein": "Protease", "value": "1.17 µM"}
{"smiles": "CN[C@@H]1[C@@H](O)[C@@H](O[C@@H]2[C@@H](O)[C@H](O[C@H]3O[C@H]([C@@H](C)NC)CC[C@H]3N)[C@@H](N)C[C@H]2N)OC[C@]1(C)O", "agent": "HIV-1", "endpoint": "inhibition", "tested at": "100 µM", "protein": "Rev:RRE", "read by": "gel", "value": "0%"}
{"smiles": "CC(C)[C@H](NC(=O)c1ccc2ccccc2n1)C(=O)N[C@@H](Cc1ccccc1)[C@H](O)CN1CC[C@@H](SCc2cccnc2)C[C@H]1C(=O)NC(C)(C)C", "mutations": "PR-V32I A71V", "agent": "HIV", "endpoint": "fold resistance", "protein": "Protease", "read by": "fluorescence", "value": "26.5"}
{"smiles": "Cc1cc(SC2=C(O)C[C@@](CCc3ccc(O)cc3)(C(C)C)OC2=O)c(C(C)(C)C)cc1N", "mutations": "PR-V32F/I84V", "agent": "HIV", "endpoint": "fold resistance", "protein": "Protease", "value": "24"}
{"smiles": "CN(C)[C@@H]1C(=O)C(C(N)=O)=C(O)[C@@]2(O)C(=O)C3=C(O)c4c(O)cccc4[C@@](C)(O)[C@H]3C[C@@H]12", "agent": "HIV-1", "endpoint": "inhibition", "tested at": "100 µM", "protein": "Rev:RRE", "read by": "gel", "value": "0%"}

Repeating the final 2 entries:

smiles,mutations,agent,endpoint,tested at,protein,strain or isolate,read by,value
Cc1cc(SC2=C(O)C[C@@](CCc3ccc(O)cc3)(C(C)C)OC2=O)c(C(C)(C)C)cc1N,PR-V32F/I84V,HIV,fold resistance,,Protease,,,24
CN(C)[C@@H]1C(=O)C(C(N)=O)=C(O)[C@@]2(O)C(=O)C3=C(O)c4c(O)cccc4[C@@](C)(O)[C@H]3C[C@@H]12,,HIV-1,inhibition,100 µM,Rev:RRE,,gel,0%

Blank or dashed fields: not listed here. ICn is the concentration giving n% inhibition. Fold resistance: result on the changed form divided by that on wild type. Inhibition is in % at the dose shown (toxicity tests: loss of growth or viability).